Earlier results in patent publication US6476002B1 (priority 1997, dated 2002).

Tested on: placental or endometrial growth
Settings: in vivo

CO[C@@H]1[C@H](OC(=O)NC(=O)CCl)CC[C@]2(CO2)[C@H]1[C@@]1(C)O[C@@H]1CC=C(C)C [AGM-1470]
effect on female reproduction, placental or endometrial growth: inhibits
